Compound potency records, mixed from different reports. Data source: NIAID ChemDB in PubChem.

Common to all: growth or infection tests; species: HIV-1; cells: HT4 + HT4-6C; endpoint: EC50

Blank or dashed fields: not listed here.

structure	strain	changes	read by	value
CCCCCCCCCCCCCCCCCCOCCCOP(=O)(O)C(=O)O			plaque count	0.95 µM
CCCCCCCCCCCCCC(=O)OC[C@H](COP(=O)(O)OP(=O)(O)OC[C@@H]1CC[C@H](n2cc(C)c(=O)[nH]c2=O)O1)OC(=O)CCCCCCCCCCCCC	A018A Clinical isolate		plaque count	6 µM
CCCCCCCCCCCCCCCCCCOCC(O)CO			plaque count	>316 µM
CCCCCCCCCCCCCOCCCOP(=O)(O)C(=O)O			syncytia	7.2 µM
Cc1ccnc2c1NC(=O)c1cccnc1N2C1CC1	BI-RG587-resistant			3.6 µM
CCCCCCCCCCCCCCCCCCOC[C@@H](COP(=O)(O)C(=O)O)OCCCCCCCC			plaque count	1.8 µM
CCCCCCCCOCCCOP(=O)(O)C(=O)O			syncytia	44 µM
Cc1cn([C@H]2C[C@H](N=[N+]=[N-])[C@@H](CO)O2)c(=O)[nH]c1=O	clinical isolate A018C (RT D67N K70R T215Y K219Q)	RT-D67N K70R T215Y K219Q	plaque count	2.3 µM
Nc1nc(=O)n([C@@H]2CS[C@H](CO)O2)cc1F	LAV-1			0.02 µM
CCCCCCCC/C=C\CCCCCCCCOCCCOP(=O)(O)C(=O)O			syncytia	1.5 µM
Cc1cn([C@H]2C[C@H](N=[N+]=[N-])[C@@H](CO)O2)c(=O)[nH]c1=O	AZT-resistant A012D Clinical isolate		plaque count	2 µM
CCCCCCCCCCCCCCCCCCOC[C@H](COP(=O)(O)C(=O)O)OCC			plaque count	1.9 µM
Nc1ccn([C@H]2CC[C@@H](CO)O2)c(=O)n1	LAV-1		syncytia	<0.1 µM
O=C(O)P(=O)(O)O			syncytia	135 µM
O=C(O)P(=O)(O)O	MN		plaque count	133 µM

Repeating the first 2 entries:

structure | strain | changes | read by | value
CCCCCCCCCCCCCCCCCCOCCCOP(=O)(O)C(=O)O |  |  | plaque count | 0.95 µM
CCCCCCCCCCCCCC(=O)OC[C@H](COP(=O)(O)OP(=O)(O)OC[C@@H]1CC[C@H](n2cc(C)c(=O)[nH]c2=O)O1)OC(=O)CCCCCCCCCCCCC | A018A Clinical isolate |  | plaque count | 6 µM

Lines come from different laboratories, so protocols vary. ECn is the concentration giving n% inhibition of infection, replication or growth.